Results of unrelated studies side by side (data: NIAID ChemDB).

All rows: growth or infection tests; organism: Herpes simplex virus 1

Conditions beyond the fields shown may differ between rows. Blank or dashed fields: not listed here. ECn: concentration that inhibits the pathogen or its effect by n%. Inhibition is in % at the dose shown (toxicity tests: loss of growth or viability).

structure	strain or isolate	read-out	read by	dose	cells	result
O=c1[nH]c(=O)n([C@H]2C[C@H](O)[C@@H](CO)O2)cc1/C=C/C(F)(F)F	KOS	EC99	virus yield	-	PRK	0.03 µg/mL
O=P1(O)OCC2O[C@@H](n3cnc4c(=S)nc[nH]c43)[C@H](O)C2O1	HF	MIC	-	-	-	3.2 µg/mL
Cc1nc(CC(=O)NN)nn1C	KOS	MIC	-	-	-	>400 µg/mL
O=c1[nH]c(=O)n([C@@H]2O[C@H](CO)[C@@H](O)[C@@H]2F)cc1I	KOS	inhibition	cytopathic effect	0.02 µg/mL	PRK	≥25%
O=c1[nH]c(=O)n([C@H]2C[C@H](O)[C@@H](CO)O2)cc1I	WT-34	MIC	-	-	-	3.2 µg/mL
CCN(C(=O)N(C)CCc1ccccn1)c1nc2ccc(NC(=O)CCCNC(=O)c3cccnc3)c(C)c2c(=O)o1	-	EC90	plaque count	-	VERO	>12.5 µM
C=CCOc1ccc(-c2cc3c(-c4ccnc(NC5CCCC5)n4)ccc(NC4CCCC4)n3n2)cc1	SC16	EC50	antigen / hybridisation	-	VERO 76	0.2 µM
Nc1nc(=O)n([C@@H]2O[C@H](CO)[C@@H](O)[C@@H]2F)cc1I	-	inhibition	cytopathic effect	0.01 µg/mL	HEP-2	≥25%
CC(=O)OCCOCN1C(=N)/C(=C(\C)O)C(N)=NS1(=O)=O	B206 (TK-)	EC50	-	-	E6SM	>400 µg/mL
O=c1[nH]c(=O)n([C@H]2C[C@H](O)[C@@H](CO)O2)cc1I	-	inhibition	cytopathic effect	0.1 µg/mL	VERO	≥25%
Nc1nc2c(ncn2COC(CO)CO)c(=O)[nH]1	98-350	EC50	PCR	-	-	0.2 µM
Cc1nc(Cc2n[nH]c(=S)n2-c2ccccc2)nn1C	KOS	MIC	-	-	-	400 µg/mL
Cc1c(NC(=O)OC(C)(C)C)ccc2nc(N3CCCC3(OCc3ccccc3)C(=O)N(C)CCc3ccccn3)oc(=O)c12	-	EC90	plaque count	-	VERO	5.9 µM
Fc1ccc(-c2cc3c(-c4ccnc(NC5CCC5)n4)ccc(NC4CCC4)n3n2)cc1	SC16	EC50	antigen / hybridisation	-	VERO 76	0.51 µM
Cc1c(NC(=O)c2cccc([N+](=O)[O-])c2)ccc2nc(NC(C)(C)C(=O)N(C)CCc3ccccn3)oc(=O)c12	-	EC90	plaque count	-	VERO	>12.5 µM
CCc1nc(CC(=O)NN=C(C)C)nn1CC	KOS	MIC	-	-	-	>400 µg/mL
CCCCOc1ccc(-c2cc3c(-c4ccnc(NC5CCCC5)n4)ccc(NC4CCCC4)n3n2)cc1	SC16	EC50	antigen / hybridisation	-	VERO 76	3.13 µM
Nc1nc2c(ncn2CCC(CO)CO)c(=O)[nH]1	SC16	EC99	virus yield	-	MRC-5	0.6 µg/mL
Cc1c(NC(=O)OC(C)(C)C)ccc2nc(NC3(C(=O)N(C)CCc4ccncc4)CC3)oc(=O)c12	-	EC90	plaque count	-	VERO	>12.5 µM
Oc1cccc(-c2cc3c(-c4ccnc(NC5CCCC5)n4)ccc(NC4CCCC4)n3n2)c1	SC16	EC50	antigen / hybridisation	-	VERO 76	0.66 µM
CCCCC(C)(C)[C@H](O)/C=C/[C@H]1C=CC(=O)[C@@H]1CCCCCCC(=O)O	KOS	EC50	hybridisation	-	VERO	5.5 µg/mL
CC(=O)OCCOCN1C(=O)C=CN(COCCO)S1(=O)=O	B206 (TK-)	EC50	-	-	E6SM	>400 µg/mL
C/C=C/c1cn([C@@H]2O[C@H](CO)[C@@H](O)[C@@H]2O)c(=O)[nH]c1=O	C42	inhibition	plaque count	250 µM	VERO	12%
Fc1ccc(-c2cc3c(-c4ccnc(NC5CCCC5)n4)ccc(NC4CCCC4)n3n2)cc1	SC16	EC50	antigen / hybridisation	-	VERO 76	0.26 µM
Cc1c(NC(=O)CCNC(=O)OC(C)(C)C)ccc2nc(NC(C)(C)C(=O)N(C)CCc3ccccn3)oc(=O)c12	-	EC90	plaque count	-	VERO	>12.5 µM
Nc1nc2c(ncn2COCCO)c(=O)[nH]1	F	inhibition	virus yield	1 µg/mL	HL	67%
CCCCCCCCCCCCCCCCOCCCOP(=O)(O)CO[C@H](CO)Cn1cnc2c(N)ncnc21	-	EC50	hybridisation	-	MRC-5	<0.0004 µM
COCc1cn([C@H]2C[C@H](O)[C@@H](CO)O2)c(=O)[nH]c1=O	Ara-A-resistant	EC50	plaque count	-	RK-13	7 µM
O=C1C=CN(COCCO)S(=O)(=O)N1COCCO	F	EC50	-	-	E6SM	>400 µg/mL
Nc1ncnc2c1ncn2[C@@H]1C[C@H](CO)[C@@H](O)[C@@H]1O	WT-20	MIC	-	-	-	10 µg/mL
CC(=O)OCCOCN1C=CC(=O)N(COCCOC(C)=O)S1(=O)=O	VMW1837 (TK-)	EC50	-	-	E6SM	>400 µg/mL
Nc1nc2c(ncn2COC(CO)CO)c(=O)[nH]1	SC16 (mutant S1)	inhibition	plaque count	1 µM	WI-38	90%
Cc1cccc(-c2cc3c(-c4ccnc(NC5CCCC5)n4)ccc(NC4CCCC4)n3n2)c1	SC16	EC50	antigen / hybridisation	-	VERO 76	0.22 µM
Cc1c(NC(=O)OC(C)(C)C)ccc2nc(NCC(=O)N(C)CCc3ccccn3)oc(=O)c12	-	EC90	plaque count	-	VERO	>20 µM
Nc1ccn([C@@H]2O[C@H](CO)[C@@H](O)[C@@H]2O)c(=O)n1	-	MIC	-	-	-	1.1 µg/mL
O=c1[nH]c(=O)n([C@H]2C[C@H](O)[C@@H](CO)O2)cc1/C=C/Br	-	inhibition	cytopathic effect	0.01 µg/mL	HEP-2	≥25%
Clc1cccc(-c2cc3c(-c4ccnc(NC5CCCC5)n4)ccc(NC4CCCC4)n3n2)c1	SC16	EC50	antigen / hybridisation	-	VERO 76	0.17 µM
O=P1(O)OCC2O[C@@H](n3cnc4c(NO)ncnc43)[C@H](O)C2O1	-	MIC	-	-	-	1 µg/mL
FC(F)(F)c1cccc(-c2cc3c(-c4ccnc(NC5CCCC5)n4)ccc(NC4CCCC4)n3n2)c1	SC16	EC50	antigen / hybridisation	-	VERO 76	0.27 µM
CCc1cn([C@H]2C[C@H](O)[C@@H](CO)O2)c(=O)[nH]c1=O	WT-20	MIC	-	-	-	320 µg/mL
CC1=CC(=O)N(c2ccccc2)S(=O)(=O)N1COCCO	B206 (TK-)	EC50	-	-	E6SM	>400 µg/mL
Nc1ncnc2nc(-c3cscn3)[nH]c12	-	inhibition	plaque count	1 µg/mL	VERO	0%

For reference, 6 entries again:

structure,strain or isolate,read-out,read by,dose,cells,result
Cc1c(NC(=O)OC(C)(C)C)ccc2nc(NCC(=O)N(C)CCc3ccccn3)oc(=O)c12,-,EC90,plaque count,-,VERO,>20 µM
Cc1c(NC(=O)CCNC(=O)OC(C)(C)C)ccc2nc(NC(C)(C)C(=O)N(C)CCc3ccccn3)oc(=O)c12,-,EC90,plaque count,-,VERO,>12.5 µM
Nc1ncnc2nc(-c3cscn3)[nH]c12,-,inhibition,plaque count,1 µg/mL,VERO,0%
CC1=CC(=O)N(c2ccccc2)S(=O)(=O)N1COCCO,B206 (TK-),EC50,-,-,E6SM,>400 µg/mL
Fc1ccc(-c2cc3c(-c4ccnc(NC5CCC5)n4)ccc(NC4CCC4)n3n2)cc1,SC16,EC50,antigen / hybridisation,-,VERO 76,0.51 µM
CCc1cn([C@H]2C[C@H](O)[C@@H](CO)O2)c(=O)[nH]c1=O,WT-20,MIC,-,-,-,320 µg/mL